Assay results taken from US10561143B2, “Fungicidal composition having synergistic effect” (JIANGSU HUIFENG AGROCHEMICAL CO., LTD., priority 2013, dated 2020).

System: rust pathogens of wheat
Details: Table 20; standard benziothiazolinone

In the case of `O=c1[nH]sc2ccccc12` [Benziothiazolinone], the “ATI (actual toxicity index)” value is reported as 100.
